Experimental findings from PMC7815794, “Rab1-AMPylation by Legionella DrrA is allosterically activated by Rab1” (Nature Communications, 2021) are described below.

Assay [1] addresses DrrA_(16-352)-D82C-D110A-D112A (L. pneumophila, UniProt Q5ZSQ3 16-352, D82C | D110A | D112A). Description: cross-linking.
A further assay concerns the target DrrA_(16-352)-L197C (L. pneumophila, UniProt Q5ZSQ3 16-352, L197C). The experiment in a line: cross-linking.

B1: Rab1b_(3-174)-Q67A-R69BrC6K-His6 (domain or fragment)
chain: PEYDYLFKLLLIGDSGVGKSCLLLRFADDTYTESYISTIGVDFKIRTIELDGKTIKLQIWDTAGAEKFRTITSSYYRGAHGIIVVYDVTDQESYANVKQWLQEIDRYASENVNKLLVGNKSDLTTKKVVDNTTAKEFADSLGIPFLETSAKNATNVEQAFMTMAAEIKKRMG
Regarding B1, the binding result in assay [1] is on record as “binds”.

B2: Rab1b_(3-174)-Q67A-R69BrC6K-Y77AMP-His6 (domain or fragment)
chain: B1 chain
modifications: BrC6K at position 69; AMP on Y77 (Y77AMP)
With B2, the binding result in assay [1] is “binds”.

B3: Rab8a_(6-176) loaded with GppNHp (domain or fragment)
chain: DYLFKLLLIGDSGVGKTCVLFRFSEDAFNSTFISTIGIDFKIRTIELDGKRIKLQIWDTAGQERFRTITTAYYRGAMGIMLVYDITNEKSFDNIRNWIRNIEEHASADVEKMILGNKCDVNDKRQVSKERGEKLALDYGIKFMETSAKANINVENAFFTLARDIKAKMDKK
notes: also called Rab8a:GppNHp; GTPase domain of Rab8a
On to B3, for which the binding result in the assay with DrrA_(16-352)-L197C is “binds”.
